For two compounds, deltaCT results are on record in ChEMBL document CHEMBL1275243 (2010).

Assay [1] deals with Bacillus anthracis. As to the kind of experiment: Antimicrobial activity against Bacillus anthracis A0293 assessed as change in fluorescence threshold cycle at. 03 ug/ml after 4 hrs by real-time PCR viability assay relative to control.
Assay [2] concerns Bacillus anthracis. As to the kind of experiment: Antimicrobial activity against Bacillus anthracis 240 assessed as change in fluorescence threshold cycle at 0.015 ug/ml after 4 hrs by real-time PCR viability assay relative to control. On the technique in general: Quantitative PCR measures a nucleic acid by following its amplification.
The test system of assay [3] is Bacillus anthracis. As to the kind of experiment: Antimicrobial activity against pXO1-positive and pXO2 negative Bacillus anthracis 34F2 assessed as change in fluorescence threshold cycle at. 03 ug/ml after 4 hrs by real-time PCR viability assay relative to control.
In assay [4] the test system is Bacillus anthracis. As to the kind of experiment: Antimicrobial activity against Bacillus anthracis A0488 assessed as change in fluorescence threshold cycle at. 03 ug/ml after 4 hrs by real-time PCR viability assay relative to control.
The test system of assay [5] is Bacillus anthracis. Briefly: Antimicrobial activity against Bacillus anthracis A0102 assessed as change in fluorescence threshold cycle at 0.015 ug/ml after 4 hrs by real-time PCR viability assay relative to control.
Assay [6] relates to Bacillus anthracis. As to the kind of experiment: Antimicrobial activity against Bacillus anthracis A0248 assessed as change in fluorescence threshold cycle at. 03 ug/ml after 4 hrs by real-time PCR viability assay relative to control.
The test system of assay [7] is Bacillus anthracis. Briefly: Antimicrobial activity against Bacillus anthracis A0465 assessed as change in fluorescence threshold cycle at 32 ug/ml after 4 hrs by real-time PCR viability assay relative to control.
For assay [8], the system named is Bacillus anthracis. As to the kind of experiment: Antimicrobial activity against Bacillus anthracis 240 assessed as change in fluorescence threshold cycle at 32 ug/ml after 4 hrs by real-time PCR viability assay relative to control.
For assay [9], the system named is Bacillus anthracis. As to the kind of experiment: Antimicrobial activity against pXO1-positive and pXO2 negative Bacillus anthracis 34F2 assessed as change in fluorescence threshold cycle at 32 ug/ml after 4 hrs by real-time PCR viability assay relative to control.
Assay [10] relates to Bacillus anthracis. As to the kind of experiment: Antimicrobial activity against Bacillus anthracis 240 assessed as change in fluorescence threshold cycle at 4 ug/ml after 4 hrs by real-time PCR viability assay relative to control.
The test system of assay [11] is Bacillus anthracis. Briefly: Antimicrobial activity against Bacillus anthracis A0419 assessed as change in fluorescence threshold cycle at 64 ug/ml after 4 hrs by real-time PCR viability assay relative to control.
In assay [12] the test system is Bacillus anthracis. As to the kind of experiment: Antimicrobial activity against Bacillus anthracis A0465 assessed as change in fluorescence threshold cycle at 64 ug/ml after 4 hrs by real-time PCR viability assay relative to control.

In the case of `O=C(O)c1cn(C2CC2)c2cc(N3CCNCC3)c(F)cc2c1=O` [CIPROFLOXACIN], the deltaCT in the assay on Bacillus anthracis [1] is 8.59; in the assay on Bacillus anthracis [2], 5; in the assay with Bacillus anthracis [3] it was 8.95; in the assay with Bacillus anthracis [4], 8.78; in the assay with Bacillus anthracis [5] it was 1.95; in the assay on Bacillus anthracis [6], 8.59.

Take `C[C@H]1c2cccc(O)c2C(=O)C2=C(O)[C@]3(O)C(=O)C(C(N)=O)=C(O)[C@@H](N(C)C)[C@@H]3[C@@H](O)[C@@H]21.O` [DOXYCYCLINE]: the deltaCT in the assay on Bacillus anthracis [7] came out at 6.57; in the assay with Bacillus anthracis [8] it was 6.37; in the assay with Bacillus anthracis [9], 7.22; in the assay with Bacillus anthracis [10] it was 8.32; with Bacillus anthracis [11], 7.25; in the assay on Bacillus anthracis [12] it was 8.26.
